Results of single-concentration screens

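Whole-cell growth test on Mycobacterium tuberculosis, read after 4 days in a medium based on cholesterol and the lipid DPPC; the read-out is not stated. Tested at 50 µM. The record gives no direction; compounds that gave an IC50 in retests scored well above the rest, so higher reads as more growth inhibition. Size under these conditions: about 69,000 compounds, about 370 of them at 50% or above in at least one test.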

Values are the deposited “Percent Effect”, in %.
The record does not define 0% and 100%; most values in the screen are far below 50% and negative numbers occur (in some assays of this library far below -100).
This is part of a subset picked to be rich in strong results.
Two or more numbers in one place are separate tests of the same structure; such repeats can differ widely.

| compound | percent effect |
|---|---|
| `COc1cccc(F)c1C(C)NC(=O)NCc1ccnc(C)n1` (centres unmarked) | -24.62% |
| `CC(C)N1CC(C(=O)NCc2ccc(S(=O)(=O)N(C)C)cc2)CC1=O` (centres unmarked) | -4.178% & 74.24% |
| `COCCN(Cc1ccccc1)C(=O)c1csc(-c2nnc[nH]2)n1` | 2.454% & -2.636% |
| `COC(=O)N1CCC(Nc2cccc(F)c2C#N)CC1` | 0.2017% & -5.62% |
| `Cc1c(C(=O)NCC(F)(F)F)nnn1-c1ccccc1Cl` | 25.48% |
| `Cc1nn(C)c2ncnc(N(C)CC3CCN(CC(C)C)C3)c12` (centres unmarked) | 71.96% |
| `Cc1ccc(C(=O)CC(SC2CCCCC2)C(=O)O)cc1` (centres unmarked) | 2.097% |
| `CCOC(=O)c1ccc(N2CCN(Cc3c(C)nn(C)c3Cl)CC2)nc1` | 29.18% |
| `O=C(Nc1nccs1)c1csc(NC2CCCC2)n1` | 54.87% |
| `Cc1nc(-c2cccc(N3CCC(N[C@@H]4CCOC4)CC3)c2)cs1` | 1.302% |
| `Cc1ccc(-n2nnc(C(=O)NCC3CCCCC3)n2)cc1` | 10.3% |
| `CCc1onc(C)c1C(=O)N1CCC(c2cc3ncccc3cn2)CC1` | -8.498% |
| `O=S(=O)(NCCNc1ccc(-n2cccc2)nn1)c1ccccc1` | 84.59% |
| `CCCOc1ccc(NC(=O)NCCC(=O)N(C)C)cc1Cl` | -2.163% |
| `CC(O)CN1CCC(CNCc2c[nH]nc2C(C)(C)C)CC1` (centres unmarked) | 55.97% |
| `Cc1nc[nH]c1-c1nccn1-c1ccc(C(N)=O)c(N2CCCC2)c1` | -17.39% |
| `CN(C)S(=O)(=O)c1ccc(CNC(=O)C2CC(=O)N(C(C)(C)C)C2)cc1` (centres unmarked) | 14.9% & -0.162% |
| `Cc1nc(O)cc(CCNC(=O)C2CC(=O)N(CC(C)C)C2)n1` (centres unmarked) | 91.99% |
| `CCOc1ccc(OCc2nccc(-c3cc(C(=O)O)ccn3)n2)cc1` | 107.4% |
| `COc1cc(C#N)ccc1OC12CCCN(CC1)C2` (centres unmarked) | -1.666% |
| `O=C(NCCNc1ccc(C(F)(F)F)cn1)c1cc(Cl)ccc1F` | 33.61% |
| `Cc1ncsc1CN(C)C(=O)C(CC(C)C)N1CCCCC1=O` (centres unmarked) | 7.137% |
| `O=C(NCCCN1CCCC1=O)c1ccc(-n2ccc3ccccc32)s1` | -4.558% |
| `O=C(NCC1CCCO1)N1CCN(Cc2ccc3c(c2)CCO3)CC1` (centres unmarked) | 8.219% |
| `Cc1cc(CS(=O)(=O)NC2CCCCC2)on1` | -8.007% |
| `COc1cc(NCC(=O)NC(C)(C#N)C(C)C)cc(OC)c1OC` (centres unmarked) | 1.375% |
| `NCCn1nc(C2CCN(C(=O)CC3CCCCC3)C2)c2nccnc21` (centres unmarked) | 3.245% |
| `COc1ccc([C@@H]2C[C@H](NC(C)=O)C[C@H](Cc3ccccc3)O2)cn1` | 28.38% & 53.09% |
| `O=C(CCc1ccccn1)N1CCCC1` | -7.502% |
| `Cc1cc2nc(-c3ccccc3)cc(NCC3CCS(=O)(=O)C3)n2n1` (centres unmarked) | -33.37% |
| `Cc1ccc(CN2CCc3nc(C(C)C)nc(O)c3CC2)s1` | -30.4% |
| `COc1ccccc1C(N)CC(C)C` (centres unmarked) | -6.457% |
| `CC(NC(=O)c1cc(-c2cccc(Cl)c2)no1)C(=O)N(C)C` (centres unmarked) | -15.47% |
| `Cc1nnc(N2CC[C@@H](OCC3CC3)[C@@H](Cc3ccccc3)C2)s1.O=C(O)C(F)(F)F` | 34.21% |
| `CN(Cc1ccncc1)C(=O)NCc1nnc2n1CCCCC2` | -22.05% |
| `CCc1noc(C)c1C(=O)NCc1ccccn1` | -16.86% |
| `CC(=O)Nc1ccc(CNC2CCCSC2)cc1` (centres unmarked) | -15.08% |
| `O=C1CCc2cc(-c3csc(CCN4CCCC4=O)n3)ccc2N1` | -26.1% |
| `CCOCC1CCN(C(=O)C(c2ccccc2F)N(C)C)CC1` (centres unmarked) | 67.06% |
| `CC(C)[C@@H]1CN(CC(=O)NCc2ccco2)C[C@H]1NS(=O)(=O)N(C)C` | 3.42% |
| `Cl.c1cc(CNCc2ccc(-n3cncn3)nc2)cc(OC2CCCC2)c1` | 57.55% |
| `COc1ccc(CC(C)Nc2cccc(SC)c2)cc1` (centres unmarked) | 60.45% |
| `COCCC1(CO)CCCN(C(=O)CCC(F)(F)F)C1` (centres unmarked) | 28.01% |
| `COC(=O)c1ccc(N2CCC(c3ccccc3)CC2)nn1` | 32.88% |
| `Cc1ccc(CN2CCOC3(CCN(C(=O)C4CC=CC4)CC3)C2)cc1.O=C(O)C(F)(F)F` | 34.88% |
| `CCc1cc(N(C)Cc2cc[nH]n2)n2nc(C)c(C)c2n1` | 18.81% |
| `CCNc1cc2c(nn1)CCN(C(=O)C1Cc3ccccc3O1)C2` (centres unmarked) | -1.114% |
| `CCCOc1ccc2c(c1)OCC(C(=O)NC(C)Cn1cccn1)=C2` (centres unmarked) | 7.228% |
| `COc1ccc(-c2nc(CCNCc3ccncc3)co2)cc1` | 11.73% & 26.96% |
| `CCS(=O)(=O)N1CCC(c2nnc(CN3CCCCCC3)n2C)CC1` | 81.93% |
| `CCC(C)(O)CNc1ccc(S(=O)(=O)C(F)F)cc1` (centres unmarked) | 17.89% |
| `NCC1CCCN(c2nc(-c3ccccc3)nc3c2CCNCC3)C1` (centres unmarked) | 52.31% & 31.75% |
| `Cc1cc(CN2CCc3nc(C(C)C)nc(O)c3CC2)c(C)s1` | 54.36% |
| `O=C(NCCn1ccnc1)c1csc2c1CCCC2` | -23.38% |
| `Cc1noc(NC(=O)c2ccc(Br)cc2)n1` | 11.65% |
| `CCN(Cc1c(C)nn(C)c1C)C(=O)C1COc2ccccc2C1` (centres unmarked) | -11.94% & -1.992% |
| `COc1ccc(Oc2ccc(C(F)(F)F)cn2)cc1CN1CCCC1` | 21.72% |
| `CCc1nnc2n1CCN(C(C(=O)NC1CC1)c1ccc(F)cc1)C2` (centres unmarked) | 11.13% |
| `O=C(NCCSC1CCCC1)c1cc(Cl)ccn1` | 7.7% |
| `Cc1[nH]ncc1C(=O)NCC1CCC2(CC1)OCCO2` | 9.829% |
| `Cc1cnn(-c2cccc(N3CCCC3)n2)c1` | -9.899% |
| `Cc1cc(CNc2ccc(C(F)(F)F)cc2)no1` | 50.66% |
| `Cc1n[nH]cc1C(=O)N1CCCC1c1cc[nH]n1` (centres unmarked) | 0.4157% |
| `O=C(NCCN1CCCCC1)c1ccn(-c2ccccc2)n1` | -19.09% |
| `CC(=O)N1CCCC1c1nnc2n1CCCCC2` (centres unmarked) | 51.62% & 0.6994% |
| `COc1ccc(-c2nc(CN3CCN(CCO)CC3)co2)cc1` | -2.209% |
| `CC(C)c1ccc(CN2C(=O)C3(CCNCC3)Nc3ccccc32)cc1` | 34.47% |
| `CC(C)N(C)S(=O)(=O)N(C)Cc1ccc2c(c1)OCO2` | 7.57% |
| `c1cncc(-c2nc3c(c(NCC4(c5ccncc5)CC4)n2)CCC3)c1` | -3.819% |
| `COC(=O)c1ccc(C(=O)NCc2ccc(Br)cc2)cn1` | 93.55% |
| `O=C1NCCCc2[nH]c(Cc3cccc(Cl)c3)nc21` | -19.13% |
| `CCc1nc(C2CCCN2c2ncc(C(F)(F)F)cc2Cl)no1` (centres unmarked) | 32.37% |
| `Cc1nn(C)cc1C(=O)NCc1cc(N(C)C)nc2ccccc12` | 5.2% |
| `Cc1cccc(CNCC2COC3(CCCCC3)O2)c1C` (centres unmarked) | -19.51% |
| `COCCN1CCN(C(C)C(=O)Nc2ccnn2C(C)C)CC1` (centres unmarked) | 53.27% & 16.43% |
| `CNC(=O)C1CN(C(=O)c2ccncc2)CCN(S(C)(=O)=O)C1` (centres unmarked) | -1.349% & -6.816% |
| `O=C(O)[C@@H]1CN(Cc2c[nH]c(CC3CCCC3)n2)C[C@H]1c1ccccn1` | -9.003% |
| `COc1ccc(C[C@H]2CN(c3nnc(C)s3)CC[C@H]2OC)cc1.O=C(O)C(F)(F)F` | 46.78% |
| `O=C(NCc1ccco1)N1CCN(Cc2ccc3c(c2)CCO3)CC1` | 76.73% |
| `c1cnc(N2CCCC(c3cncc(-n4ccnc4)n3)C2)nc1` (centres unmarked) | -14.17% |
| `Cc1ccc2nc(C)cc(C(=O)NCc3csc(N(C)C)n3)c2c1` | -12.26% |
| `CCc1cnc(N)nc1N[C@@H](C)c1ncccc1C` | -13.15% |
| `CSC1=Nc2c(cnn2-c2cccc(Cl)c2)C2=NCCCN12` | 49.26% |
| `COc1coc(CN2CCCC(CCc3ccc(F)cc3)C2)cc1=O` (centres unmarked) | 43.66% |

Some entries from above, unchanged:

{"compound": "COc1ccc([C@@H]2C[C@H](NC(C)=O)C[C@H](Cc3ccccc3)O2)cn1", "percent effect": "28.38 & 53.09"}
{"compound": "COc1cccc(F)c1C(C)NC(=O)NCc1ccnc(C)n1", "stereo": "centres unmarked", "percent effect": -24.62}
{"compound": "Cc1ccc(C(=O)CC(SC2CCCCC2)C(=O)O)cc1", "stereo": "centres unmarked", "percent effect": 2.097}
{"compound": "COCCC1(CO)CCCN(C(=O)CCC(F)(F)F)C1", "stereo": "centres unmarked", "percent effect": 28.01}
{"compound": "Cc1[nH]ncc1C(=O)NCC1CCC2(CC1)OCCO2", "percent effect": 9.829}

The values are deposited in ChEMBL (CHEMBL3988442, “University of Dundee, Small-Polar-MMV Screening Library” (2021)).